In patent publication US20260083728A1, “COMPOUNDS FOR TREATING INFECTIONS WITH PARASITIC PROTOZOA” (OHIO STATE INNOVATIION FOUNDATION, priority 2022, published 2026):

System: L. donovani LV82 promastigotes
Experiment: Promastigote assay (proliferation)
Type: cell-based, Leishmania donovani
Conditions: read-out: EC50 vs LV82, n ≥ 3 independent experiments

O=C(Nc1ccc(OCc2ccccc2)cc1)N1CCN(CCc2ccncc2)CC1
EC50: > 100 µM
